According to publication PMC8017934:

What was measured:
[1] = target: human 40S ribosomal subunit with the ybbR tag on uS19, Cy3-labelled (human (endogenous in HEK293T)) (UniProt P62841)
[2] = target: human 40S ribosomal subunit with the ybbR tag on RACK1, biotinylated or Cy5-labelled (human) (UniProt P63244)
[3] = target: human 40S ribosomal subunit with the ybbR tag on uS19, Cy3-labelled (human (endogenous in HEK293T)) (UniProt P62841); remark: listed apart in the source
[4] = target: human 40S ribosomal subunit with the ybbR tag on uS19, Cy3-labelled (human (endogenous in HEK293T)) (UniProt P62841); remark: listed apart in the source

SARS-CoV-2 NSP1 with an N-terminal ybbR tag, fluorescently labelled (from UniProt P0DTD1 1-180) (natural protein)
fraction of complexes bound at least once by NSP1 [1]: 45% | fraction of IRES–40S complexes bound at least once by NSP1 (≥∼5 s) [2]: 81% | kobs of NSP1 reassociation [3]: < 0.0014 s⁻¹ | koff [4]: 0.0072 s⁻¹
